Test results published in patent US20240109955A1 (published 2024).

B1: MX834 (trispecific antibody)
chain 1: QTVVTQEPSFSVSPGGTVTLTCGLSSGSVSTAYFPSWYQQTPGQAPRTLIYGTNTRSSGVPDRFSGSILGNKAALTITGAQADDESDYYCVLYMGRGIVVFGGGTKLTVLGGSSGEIVLTQSPGTLSLSPGERATLSCRASQSVSSSYLAWYQQKPGQAPRLLIYSASSRATGIPDRFSGSGSGTDFTLTISRLEPEDFAVYFCQQYVGLTGWTFGQGTKVEIKGGGGSGGSGSGGGGSASGSGQMQLVQSGPEVKKPGTSVKVSCKASGFTFTSSAVQWVRQRQRLEWIGWIVVGSGNTNYAQKFQERVTITRDMSTSTAYMELSSLRSEDTAVYYCAAPNCSNVVCYDGFDIWGQGTMVTVSSGGSSGQVQLVESGGGVVQPGRSLRLSCAASGFTLSSYGMHWVRQAPGKGLEWVAVISYDGSNKYYVDSVKGRFTISRDNSKNTLYLQMNSLRAEDTAVYYCRWAYWELLPDYYYGMDVWGQGTTVTVSSASGGSGDKTHTCPPCPAPELLGGPSVFLFPPKPKDTLMISRTPEVTCVVVDVSHEDPEVKFNWYVDGVEVHNAKTKPREEQYNSYVVSVLTVLHQDWLNGKEYKCKVSNKALPAPIEKTISKAKGQPREPQVYTLPPCRDELTKNQVSLWCLVKGFYPSDIAVEWESNGQPENNYKTTPPVLDSDGSFFKKLTVDKSRWQQGNVFSCSVLHEALHSHYTQKSLSLSPG
chain 2: QTVVTQEPSFSVSPGGTVTLTCGLSSGSVSTAYFPSWYQQTPGQAPRTLIYGTNTRSSGVPDRFSGSILGNKAALTITGAQADDESDYYCVLYMGRGIVVFGGGTKLTVLGGSSGEIVLTQSPGTLSLSPGERATLSCRASQSVSSSYLAWYQQKPGQAPRLLIYSASSRATGIPDRFSGSGSGTDFTLTISRLEPEDFAVYFCQQYVGLTGWTFGQGTKVEIKGGGGSGGSGSGGGGSASGSGQMQLVQSGPEVKKPGTSVKVSCKASGFTFTSSAVQWVRQRQRLEWIGWIVVGSGNTNYAQKFQERVTITRDMSTSTAYMELSSLRSEDTAVYYCAAPNCSNVVCYDGFDIWGQGTMVTVSSGGSSGQVQLVESGGGVVQPGRSLRLSCAASGFTLSSYGMHWVRQAPGKGLEWVAVISYDGSNKYYVDSVKGRFTISRDNSKNTLYLQMNSLRAEDTAVYYCRWAYWELLPDYYYGMDVWGQGTTVTVSSASGGSGDKTHTCPPCPAPELLGGPSVFLFPPKPKDTLMISRTPEVTCVVVDVSHEDPEVKFNWYVDGVEVHNAKTKPREEQYNSYVVSVLTVLHQDWLNGKEYKCKVSNKALPAPIEKTISKAKGQPREPQVYTLPPCRDELTKNQVSLWCLVKGFYPSDIAVEWESNGQPENNYKTTPPVLDSDGSFFKKLTVDKSRWQQGNVFSCSVLHEALHSHYTQKSLSLSPG
B2: MX837 (trispecific antibody)
chain 1: QTVVTQEPSFSVSPGGTVTLTCGLSSGSVSTAYFPSWYQQTPGQAPRTLIYGTNTRSSGVPDRFSGSILGNKAALTITGAQADDESDYYCVLYMGRGIVVFGGGTKLTVLGGSSGEIVLTQSPGTLSLSPGERATLSCRASQSVSSSYLAWYQQKPGQAPRLLIYSASSRATGIPDRFSGSGSGTDFTLTISRLEPEDFAVYFCQQYVGLTGWTFGQGTKVEIKGGGGSGGSGSGGGGSASGSGQMQLVQSGPEVKKPGTSVKVSCKASGFTFTSSAVQWVRQRQRLEWIGWIVVGSGNTNYAQKFQERVTITRDMSTSTAYMELSSLRSEDTAVYYCAAPNCSNVVCYDGFDIWGQGTMVTVSSGGSSGQVQLVESGGGVVQPGRSLRLSCAASGFTLSSYGMHWVRQAPGKGLEWVAVISYDGSNKYYVDSVKGRFTISRDNSKNTLYLQMNSLRAEDTAVYYCRWAYWELLPDYYYGMDVWGQGTTVTVSSASGGSGDKTHTCPPCPAPELLGGPSVFLFPPKPKDTLMISRTPEVTCVVVDVSHEDPEVKFNWYVDGVEVHNAKTKPREEQYNSYVVSVLTVLHQDWLNGKEYKCKVSNKALPAPIEKTISKAKGQPREPQVYTLPPCRDELTKNQVSLWCLVKGFYPSDIAVEWESNGQPENNYKTTPPVLDSDGSFFKKLTVDKSRWQQGNVFSCSVLHEALHSHYTQKSLSLSPG
chain 2: DIQMTQSPSSVSASVGDRVIITCRASQGISSWLAWYQQKPGKAPKVLIYDASSLQSGVPSRFSGSGYGTDFTLTISSLQPEDSATYYCQQAKSFPITFGQGTRLEIKGGSSGEIVLTQSPGTLSLSPGERATLSCRASQSVSSSYLAWYQQKPGQAPRLLIYSASSRATGIPDRFSGSGSGTDFTLTISRLEPEDFAVYFCQQYVGLTGWTFGQGTKVEIKGGGGSGGSGSGGGGSASGSGQMQLVQSGPEVKKPGTSVKVSCKASGFTFTSSAVQWVRQRQRLEWIGWIVVGSGNTNYAQKFQERVTITRDMSTSTAYMELSSLRSEDTAVYYCAAPNCSNVVCYDGFDIWGQGTMVTVSSGGSSGQVQLVESGGGVVQPGRSLRLSCAASGFTFSSYAFHWVRQAPGKGLEWVAVISYDGSNQYYADSVKGRFTISRDNSKNTLYLQMNSLRADDTAVYYCARDLAIAVAGTWHYYNGMDVWGQGTTVTVSSASGGSGDKTHTCPPCPAPELLGGPSVFLFPPKPKDTLMISRTPEVTCVVVDVSHEDPEVKFNWYVDGVEVHNAKTKPREEQYNSYVVSVLTVLHQDWLNGKEYKCKVSNKALPAPIEKTISKAKGQPREPQVCTLPPSRDELTKNQVSLSCAVKGFYPSDIAVEWESNGQPENNYKTTPPVLDSDGSFFLVSKLTVDKSRWQQGNVFSCSVLHEALHSHYTQKSLSLSPG
B3: MX835 (trispecific antibody)
chain 1: QTVVTQEPSFSVSPGGTVTLTCGLSSGSVSTAYFPSWYQQTPGQAPRTLIYGTNTRSSGVPDRFSGSILGNKAALTITGAQADDESDYYCVLYMGRGIVVFGGGTKLTVLGGSSGEIVLTQSPGTLSLSPGERATLSCRASQSVSSSYLAWYQQKPGQAPRLLIYSASSRATGIPDRFSGSGSGTDFTLTISRLEPEDFAVYFCQQYGGLTGWTFGQGTKVEIKGGGGSGGSGSGGGGSASGSGQMQLVQSGPEVKKPGTSVKVSCKASGFTFTSSAVQWVRQRQRLEWIGWIVVGSGNTNYAQKFQERVTITRDMSTSTAYMELSSLRSEDTAVYYCAAPNCSNVVCYDGFDIWGQGTMVTVSSGGSSGQVQLVESGGGVVQPGRSLRLSCAASGFTLSSYGMHWVRQAPGKGLEWVAVISYDGSNKYYVDSVKGRFTISRDNSKNTLYLQMNSLRAEDTAVYYCRWAYWELLPDYYYGMDVWGQGTTVTVSSASGGSGDKTHTCPPCPAPELLGGPSVFLFPPKPKDTLMISRTPEVTCVVVDVSHEDPEVKFNWYVDGVEVHNAKTKPREEQYNSYVVSVLTVLHQDWLNGKEYKCKVSNKALPAPIEKTISKAKGQPREPQVYTLPPCRDELTKNQVSLWCLVKGFYPSDIAVEWESNGQPENNYKTTPPVLDSDGSFFKKLTVDKSRWQQGNVFSCSVLHEALHSHYTQKSLSLSPG
chain 2: EIVLTQSPGTLSLSPGERATLSCRASQSVSSSYLAWYQQKPGQAPRLLIYSASSRATGIPDRFSGSGSGTDFTLTISRLEPEDFAVYFCQQYGGLTGWTFGQGTKVEIKGGSSGDIQMTQSPSSVSASVGDRVIITCRASQGISSWLAWYQQKPGKAPKVLIYDASSLQSGVPSRFSGSGYGTDFTLTISSLQPEDSATYYCQQAKSFPITFGQGTRLEIKGGGGSGGSGSGGGGSASGSGQVQLVESGGGVVQPGRSLRLSCAASGFTFSSYAFHWVRQAPGKGLEWVAVISYDGSNQYYADSVKGRFTISRDNSKNTLYLQMNSLRADDTAVYYCARDLAIAVAGTWHYYNGMDVWGQGTTVTVSSGGSSGQMQLVQSGPEVKKPGTSVKVSCKASGFTFTSSAVQWVRQRQRLEWIGWIVVGSGNTNYAQKFQERVTITRDMSTSTAYMELSSLRSEDTAVYYCAAPNCSNVVCYDGFDIWGQGTMVTVSSASGGSGDKTHTCPPCPAPELLGGPSVFLFPPKPKDTLMISRTPEVTCVVVDVSHEDPEVKFNWYVDGVEVHNAKTKPREEQYNSYVVSVLTVLHQDWLNGKEYKCKVSNKALPAPIEKTISKAKGQPREPQVCTLPPSRDELTKNQVSLSCAVKGFYPSDIAVEWESNGQPENNYKTTPPVLDSDGSFFLVSKLTVDKSRWQQGNVFSCSVLHEALHSHYTQKSLSLSPG
B4: MX838 (trispecific antibody)
chain 1: QTVVTQEPSFSVSPGGTVTLTCGLSSGSVSTAYFPSWYQQTPGQAPRTLIYGTNTRSSGVPDRFSGSILGNKAALTITGAQADDESDYYCVLYMGRGIVVFGGGTKLTVLGGSSGEIVLTQSPGTLSLSPGERATLSCRASQSVSSSYLAWYQQKPGQAPRLLIYSASSRATGIPDRFSGSGSGTDFTLTISRLEPEDFAVYFCQQYGGLTGWTFGQGTKVEIKGGGGSGGSGSGGGGSASGSGQMQLVQSGPEVKKPGTSVKVSCKASGFTFTSSAVQWVRQRQRLEWIGWIVVGSGNTNYAQKFQERVTITRDMSTSTAYMELSSLRSEDTAVYYCAAPNCSNVVCYDGFDIWGQGTMVTVSSGGSSGQVQLVESGGGVVQPGRSLRLSCAASGFTLSSYGMHWVRQAPGKGLEWVAVISYDGSNKYYVDSVKGRFTISRDNSKNTLYLQMNSLRAEDTAVYYCRWAYWELLPDYYYGMDVWGQGTTVTVSSASGGSGDKTHTCPPCPAPELLGGPSVFLFPPKPKDTLMISRTPEVTCVVVDVSHEDPEVKFNWYVDGVEVHNAKTKPREEQYNSYVVSVLTVLHQDWLNGKEYKCKVSNKALPAPIEKTISKAKGQPREPQVYTLPPCRDELTKNQVSLWCLVKGFYPSDIAVEWESNGQPENNYKTTPPVLDSDGSFFKKLTVDKSRWQQGNVFSCSVLHEALHSHYTQKSLSLSPG
chain 2: DIQMTQSPSSVSASVGDRVIITCRASQGISSWLAWYQQKPGKAPKVLIYDASSLQSGVPSRFSGSGYGTDFTLTISSLQPEDSATYYCQQAKSFPITFGQGTRLEIKGGSSGEIVLTQSPGTLSLSPGERATLSCRASQSVSSSYLAWYQQKPGQAPRLLIYSASSRATGIPDRFSGSGSGTDFTLTISRLEPEDFAVYFCQQYGGLTGWTFGQGTKVEIKGGGGSGGSGSGGGGSASGSGQMQLVQSGPEVKKPGTSVKVSCKASGFTFTSSAVQWVRQRQRLEWIGWIVVGSGNTNYAQKFQERVTITRDMSTSTAYMELSSLRSEDTAVYYCAAPNCSNVVCYDGFDIWGQGTMVTVSSGGSSGQVQLVESGGGVVQPGRSLRLSCAASGFTFSSYAFHWVRQAPGKGLEWVAVISYDGSNQYYADSVKGRFTISRDNSKNTLYLQMNSLRADDTAVYYCARDLAIAVAGTWHYYNGMDVWGQGTTVTVSSASGGSGDKTHTCPPCPAPELLGGPSVFLFPPKPKDTLMISRTPEVTCVVVDVSHEDPEVKFNWYVDGVEVHNAKTKPREEQYNSYVVSVLTVLHQDWLNGKEYKCKVSNKALPAPIEKTISKAKGQPREPQVCTLPPSRDELTKNQVSLSCAVKGFYPSDIAVEWESNGQPENNYKTTPPVLDSDGSFFLVSKLTVDKSRWQQGNVFSCSVLHEALHSHYTQKSLSLSPG

Biological target: SARS-CoV-2 Omicron BA.4.6 spike protein (R346T, F486V) (SARS-CoV-2, UniProt P0DTC2 14-1273)
Experiment: cell-based or functional assay

Question: Which results are given for B1?
Answer: IC50, pseudovirus neutralization: 24 nM; IC80, pseudovirus neutralization: 109 nM

Question: What does the source list for B2?
Answer: IC50, pseudovirus neutralization: 33 nM; IC80, pseudovirus neutralization: 80 nM

Question: With B3 as the binder, how does the “IC50, pseudovirus neutralization” value read?
Answer: 19 nM

Question: What about the “IC80, pseudovirus neutralization” value of the same binder?
Answer: 92 nM

Question: How did the “IC50, pseudovirus neutralization” value turn out when B4 was run?
Answer: 23 nM

Question: What about the “IC80, pseudovirus neutralization” value of the same binder?
Answer: 104 nM
